In patent US20220033522A1 (Janssen / Centocor, published 2022):

Biological target: polymeric immunoglobulin receptor (pIgR), his-tagged (human, UniProt P01833 19-638)
Assay: BLI (Octet), his-tagged pIgR on anti-His biosensor

B1: SAD-S35 (antibody, human IgG1, kappa, V domains shown)
VH: QVQLVESGGGLVQPGGSLRLSCAASGITVSSNYMSWVRQAPGKGLEWVSVIYSGGSTYYADSVKGRFSISRDNSKNTLYLQMNSLRAEDTAVYYCARDLQERGGMDVWGQGTTVTVSS
VL: not shown
notes: also called Acro Biosystems cat. #SAD-S35
B1: no binding (tested: 10 µg/mL).
